Test results reported in PMC8330757, “Design and characterisation of piperazine-benzofuran integrated dinitrobenzenesulfonamide as Mycobacterium tuberculosis H37Rv strain inhibitors” (Journal of Enzyme Inhibition and Medicinal Chemistry, 2021).

Tested on: human cell-line A549 cells
Assay: In vitro cytotoxicity, MTT assay
Type: cell-based
Settings: selectivity index (IC50/MIC)
Method: The safety profile of the active hybrids was also accessed by testing in vitro cytotoxicity against human cell-line A549 cells at 50 μg/mL concentration by (4,5-dimethylthiazol-2-yl)-2,5-diphenyltetrazolium bromide (MTT) assay. […]
completion of starting material and formation of polar spot. The reaction mixture was concentrated to dry to give 7a-7d, used directly in next step.
1.2. In-vitro Mtb MABA assay
Briefly, the inoculum was prepared from fresh LJ medium re -suspended in 7H9-S medium (7H9 broth, 0.1% casitone, 0.5% glycerol, supplemented oleic acid, albumin, dextrose, and catalase [OADC]), adjuste d to an OD590 1.0, and diluted 1:20; 100 µl was used as inoculum. Each drug stock solution was thawed and diluted in 7H9 -S at four-fold the final highest concentration tested. Serial two-fold dilutions of each drug were prepared directly in a sterile 96 -well microtiter plate using 100 µl 7H9 -S. A growth control containing no antibiotic and a sterile control were also prepared on each plate. Sterile water was added to all perimeter wells to avoid evaporation during the incubation. The plate was covered, seal ed in plastic bags and incubated at 37 °C in normal atmosphere. After 7 days incubation, 30 µl of Alamar blue solution was added to each well, and the plate was re -incubated overnight. A change in colour from blue (oxidised state) to pink (reduced) indicat ed the growth of bacteria, and the MIC was defined as the lowest concentration of drug that prevented this change in colour. […]
the concentration of […]. After 72 h of exposure, viability was assessed on the basis of cellular conversion of MTT into a formazan product using the Promega Cell Titer 96 non - radioactive cell proliferation assay.
1.4. DPPH radical scavenging activity
The hydrogen atom or electron donation ability of some compounds were measured from the bleaching of the purple colored methanol solution of […] (DPPH). The spectrophotometric assay uses the stable radical DPPH as a reagent. 1 mL of various concentrations of the test compounds (5, 10, 25, 50 and 100 μg/mL) in methanol was added to 4 mL of 0.004% (w/v) methanol solution of DPPH. The reaction mixture was incubated at 37 °C.
The scavenging activity on DPPH was determined by measuring the absorbance at 517 nm after 30 min. All tests were performed in triplicate and the mean values were entered. The percent of inhibition (I %) of free radical production from DPPH was calculated by the following equation % of scavenging = [(A control – A sample)/ […]]. Where, A control is the […]

Row | Structure (SMILES) | Human cell lines A549 SI index
1 | CCOC(=O)c1cc2cc(N3CCN(S(=O)(=O)c4ccc([N+](=O)[O-])cc4[N+](=O)[O-])CC3)ccc2o1 [Compound 4a, ethyl 5-(4-(2,4-dintrobenzenesulfonyl)piperazin-1-yl)benzofuran-2-carboxylate] | >60
2 | CCOC(=O)c1cc2cc(N3CCN(C(=O)CNS(=O)(=O)c4ccc([N+](=O)[O-])cc4[N+](=O)[O-])CC3)ccc2o1 [Compound 4b, ethyl 5-(4-(2-(2,4-dinitrophenylsulfonamido)acetyl)piperazin-1-yl)benzofuran-2-carboxylate] | >15
3 | CCOC(=O)c1cc2cc(N3CCN(C(=O)CCCNS(=O)(=O)c4ccc([N+](=O)[O-])cc4[N+](=O)[O-])CC3)ccc2o1 [Compound 4d, ethyl 5-(4-(4-(2,4-dinitrophenylsulfonamido)butanoyl)piperazin-1-yl) benzofuran-2-carboxylate] | >30
4 | CCOC(=O)c1cc2cc(N3CCN(C(=O)C4CCN(S(=O)(=O)c5ccc([N+](=O)[O-])cc5[N+](=O)[O-])CC4)CC3)ccc2o1 [Compound 4e, ethyl 5-(4-(1-((2,4-dinitrophenyl)sulphonyl)piperidine-4-carbonyl)piperazin-1-yl)benzofuran-2-carboxylate] | >30
5 | CCOC(=O)c1cc2cc(N3CCN(C(=O)C4CCCN(S(=O)(=O)c5ccc([N+](=O)[O-])cc5[N+](=O)[O-])C4)CC3)ccc2o1 (centres unmarked) [Compound 4f, ethyl 5-(4-(1-((2,4-dinitrophenyl)sulphonyl)piperidine-3-carbonyl)piperazin-1-yl)benzofuran-2-carboxylate] | >30
6 | CCOC(=O)c1cc2cc(N3CCN(C(=O)C(C)(C)NS(=O)(=O)c4ccc([N+](=O)[O-])cc4[N+](=O)[O-])CC3)ccc2o1 [Compound 4j, ethyl 5-(4-(2-(2,4-dinitrophenylsulfonamido)-2-methylpropanoyl)piperazin-1-yl)benzofuran-2-carboxylate] | >60
7 | O=C(Nc1ccccc1)c1cc2cc(N3CCN(S(=O)(=O)c4ccc([N+](=O)[O-])cc4[N+](=O)[O-])CC3)ccc2o1 [Compound 4n, 5-(4-((2,4-dinitrophenyl)sulphonyl)piperazin-1-yl)-N-phenylbenzofuran-2-carboxamide] | >15
8 | O=C(c1cc2cc(N3CCN(S(=O)(=O)c4ccc([N+](=O)[O-])cc4[N+](=O)[O-])CC3)ccc2o1)N1CCCCC1 [Compound 4o, (5-(4-((2,4-dinitrophenyl)sulphonyl)piperazin-1-yl)benzofuran-2-yl) (piperidin-1-yl)methanone] | >30
